Reference: patent US8741576B2, “Heteroclitic analogs and related methods” (Epimunne Inc., priority 1999, dated 2014)

Columns and labels:
[1] = tested on: MAGE2.157-, HBV Pol.455- and HIV Pol.476-specific CTL lines; test: IFNγ release (in situ capture ELISA) from murine CTL lines with peptide-pulsed .221A2.1 APC; type: cell-based, HLA-A2.1/K^bxs transgenic mice; settings: dose titration
[2] = tested on: MAGE2.157-, HBV Pol.455- and HIV Pol.476-specific CTL lines; test: Th2 cytokine (IL10/IL5) production by murine CTL lines, ELISA; type: cell-based, HLA-A2.1/K^bxs transgenic mice; settings: for fold lower peptide concentration than wildtype inducing significant IL10 (50 pg/ml): dose titration; for Th2 cytokines: minimum peptide concentration required to induce 50 pg/ml of IL10 or IL15: murine CTL lines

Row | SMILES | fold lower dose than wildtype peptide stimulating significant IFNγ (100 pg/well) [1] | fold lower peptide concentration than wildtype inducing significant IL10 (50 pg/ml) [2] [fold] | Th2 cytokines: minimum peptide concentration required to induce 50 pg/ml of IL10 or IL15 [2]
1 | CC(C)C[C@H](NC(=O)[C@H](CCCNC(=N)N)NC(=O)[C@@H]1CCCN1C(=O)[C@@H](NC(=O)[C@H](Cc1ccc(O)cc1)NC(=O)[C@H](CCCNC(=N)N)NC(=O)[C@H](CO)NC(=O)[C@H](CC(C)C)NC(=O)CN)C(C)C)C(=O)O [HBV Pol.455 P7] | 100 fold | 100 | 10^−2 μg/ml
2 | CC[C@H](C)[C@H](N)C(=O)N[C@@H](CC(C)C)C(=O)N[C@@H](Cc1c[nH]cn1)C(=O)N[C@@H](CCC(=O)O)C(=O)N1CCC[C@H]1C(=O)N[C@H](C(=O)N[C@@H](Cc1c[nH]cn1)C(=O)NCC(=O)N[C@H](C(=O)O)C(C)C)C(C)C [HIV Pol.476 H3] | – | – | 1 µg/mL
3 | CC[C@H](C)[C@H](NC(=O)CNC(=O)[C@H](Cc1ccccc1)NC(=O)[C@H](Cc1ccccc1)NC(=O)[C@H](CC(C)C)NC(=O)[C@H](CCC(N)=O)NC(=O)[C@H](CC(C)C)NC(=O)[C@@H](N)Cc1ccc(O)cc1)C(=O)N[C@@H](CCC(=O)O)C(=O)N[C@H](C(=O)O)C(C)C [MAGE2.157 F5] | 100 fold | 10 | 10^−2 μg/ml
4 | CC[C@H](C)[C@H](NC(=O)CNC(=O)[C@H](Cc1ccccc1)NC(=O)[C@@H](NC(=O)[C@H](CC(C)C)NC(=O)[C@H](CCC(N)=O)NC(=O)[C@H](CC(C)C)NC(=O)[C@@H](N)Cc1ccc(O)cc1)[C@@H](C)CC)C(=O)N[C@@H](CCC(=O)O)C(=O)N[C@H](C(=O)O)C(C)C [MAGE2.157 I5] | 10,000 fold | 100 | 10^−2 μg/ml
